A mixed list of measured activities; the numbers were collected in NIAID ChemDB.

Shared fields: growth or infection tests; organism: Influenza A virus

ECn is the concentration giving n% inhibition of infection, replication or growth. a–b is a range or a potency band. Conditions beyond the fields shown may differ between rows. An empty or dashed field is not shown.

| smiles | strain | cells | method | endpoint | value |
|---|---|---|---|---|---|
| CC(N)C12CC3CC(CC(C3)C1)C2 | A/Brazil/11/78 (H1N1) | MDCK | plaque count | EC50 | 0.6 µM |
| NC12CC3CC(CC(C3)C1)C2 | A/University of Maryland/2/72 | - | - | MIC | 0.05 µg/mL |
| CC(N)C12CC3CC(CC(C3)C1)C2 | H3N2 A/HK/7/87 | MDCK cells | cytopathic effect | EC50 | 0.15 µM |
| CC(=O)N[C@H]1[C@H]([C@H](O)[C@H](O)CO)OC(C(=O)O)=C[C@@H]1N | Influenza A/Mississippi/1/85 (H3N2) | MDCK | plaque count | EC50 | 1.2 µM |
| C[C@@H]1CCC[C@@H]2C[C@@H](NC(=O)c3cccc(O)c3O)CCN21 | H1N1 A/WSN/33 | MDBK | plaque count | EC50 | >20 µg/mL |
| CN1CCC2(C1)C1CC3CC(C1)CC2C3 | A/England/42/74 | - | - | MIC | 0.1 µg/mL |
| C[C@@H]1CCC[C@@H]2C[C@@H](NC(=O)c3cc(C(=O)c4ccccc4)ccc3O)CCN21 | H1N1 A/WSN/33 | MDBK | plaque count | EC50 | >20 µg/mL |
| CC(=O)N[C@H]1[C@H]([C@H](O)[C@H](O)CO)OC(C(=O)O)=C[C@@H]1N=C(N)N | Influenza A/Mississippi/1/85 (H3N2) | MDCK | - | EC50 | 0.014 µM |
| C[C@@H]1CCC[C@@H]2C[C@@H](NC(=O)c3cc(Cl)cc(Cl)c3O)CCN21 | H1N1 A/WSN/33 | MDBK | plaque count | EC50 | 10–20 µg/mL |
| NC(=O)c1ncn([C@@H]2O[C@H](CO)[C@@H](O)[C@H]2O)n1 | - | MDCK | plaque count | EC90 | 6.14 µg/mL |
| Nc1nc(-c2ccc(Br)cc2Br)c(SCC(=O)Nc2ccccc2N)s1 | H3N2 A/PR/8/34 | MDCK cells | cytopathic effect | EC50 | 0.37 µM |
| NC12CC3CC(CC(C3)C1)C2 | H1N1 PR/8/34 | MDCK | plaque count | EC50 | >50 µg/mL |
| C[C@@H]1CCC[C@@H]2C[C@@H](NC(=O)c3cc(O)ccc3O)CCN21 | H1N1 A/WSN/33 | MDBK | plaque count | EC50 | >20 µg/mL |
| CCOC(=O)C1=C[C@@H](OC2CCCCC2)[C@H](NC(C)=O)[C@@H](N)C1 | H3N2 A/HK/7/87 | MDCK cells | cytopathic effect | EC50 | 60 µM |
| COc1cc(N)c(Cl)cc1C(=O)N[C@H]1CCN2[C@H](CCC[C@H]2C)C1 | H1N1 A/WSN/33 | MDBK | plaque count | EC50 | >20 µg/mL |
| Cc1ccccc1NC(=O)CSc1sc(N)nc1-c1ccc(Br)cc1Br | H1N1 A/PR/8/34 | MDCK cells | cytopathic effect | EC50 | 0.39 µM |
| N=C(N)c1ncn([C@@H]2O[C@H](CO)[C@@H](O)[C@H]2O)n1 | Influenza A/Panama/2007/99 (H3N2) | MDCK | neutral red | EC50 | 16 µg/mL |
| Cc1ccc(O)c(C(=O)N[C@H]2CCN3[C@H](CCC[C@H]3C)C2)c1 | H1N1 A/WSN/33 | MDBK | plaque count | EC50 | 0.2–0.3 µg/mL |
| CC(N)C12CC3CC(CC(C3)C1)C2 | Influenza A/Sydney/05/97 (H3N2) | MDCK | neutral red | EC50 | 0.09 µM |

The last 2 rows once more:

smiles,strain,cells,method,endpoint,value
Cc1ccc(O)c(C(=O)N[C@H]2CCN3[C@H](CCC[C@H]3C)C2)c1,H1N1 A/WSN/33,MDBK,plaque count,EC50,0.2–0.3 µg/mL
CC(N)C12CC3CC(CC(C3)C1)C2,Influenza A/Sydney/05/97 (H3N2),MDCK,neutral red,EC50,0.09 µM